Results reported in article PMC3917654.
Construct, isoform or probe ends are uncertain for at least one entry. At least one verdict rests on a figure or table, not on a statement of the authors.

Target: Imu3 (His-tagged) (Escherichia coli TA211 (uropathogenic)) (UniProt B7MAN7)
Assay: competition with a labelled probe
Conditions: pUC19/EcoRI indicator DNA; EMSA: TE (10 mM Tris, 1 mM EDTA, pH 8), 37 C, 30 min, 0.8% agarose; recombinant protein; protein details: N-terminal His; single-stranded DNA

| Sequence | binding result |
| --- | --- |
| AGGGTGGCGGTT [12-mer (M13)] | binds |
| GAGGGTGGCGGTT [13-mer (M13)] | binds |
| GAGGGTGGCGGTTC [14-mer (M13)] | binds |
| GAGGGTGGCGGTTCT [15-mer (M13)] | binds |
